Tested on: P. falciparum female gametocytes
Test: P. falciparum female gametogenesis assay (Pf FGAA)
Conditions: >10-fold green
[1] = unified cytotox / Pf FGAA IC50, <10-fold selectivity red
[2] = unified cytotox / IC50, <10-fold red

CCCC(=O)NC(c1ccc(C)cc1)c1ccc2cccnc2c1O (centres unmarked) [TCMDC-123605]
Assay tox ratio Pf FGAA [1]: 5.32

Cc1ccc(-c2nc3cc(NC(=O)c4ccc([N+](=O)[O-])o4)ccc3o2)cc1Cl [TCMDC-123657]
Assay tox ratio Pf FGAA [1]: 1.27

Cc1ccnc(NC(c2ccc(Cl)c([N+](=O)[O-])c2)c2ccc3cccnc3c2O)c1 (centres unmarked) [TCMDC-123691]
Assay tox ratio Pf FGAA [1]: 15.84

N#CC(c1ccc(Br)cc1)c1ccc2c(C(F)(F)F)cc(C(F)(F)F)nc2n1 (centres unmarked) [TCMDC-123754]
Assay tox ratio Pf FGAA [1]: 2.01

FC(F)(F)c1cnc(Sc2nnc(-c3ccncc3)o2)c(Cl)c1 [TCMDC-123767]
Assay tox ratio Pf FGAA [1]: 615.29

OC1CCN(c2cc(-c3ccccn3)nc(-c3ccccn3)n2)CC1 [TCMDC-123786]
Assay tox ratio Pf FGAA [1]: 9.15

COc1ccc(-c2csc3ncnc(Cl)c23)cc1 [TCMDC-123805]
Assay tox ratio Pf FGAA [1]: 0.38

Clc1ccc(-c2csc3ncnc(Cl)c23)cc1 [TCMDC-123811]
Assay tox ratio Pf FGAA [1]: 60.12

O=C(Nc1nc(-c2ccccn2)cs1)c1ccc(Br)s1 [TCMDC-123868]
Assay tox ratio Pf FGAA [1]: 32.14

CCCC(=O)NC(c1ccc(C(C)C)cc1)c1ccc2cccnc2c1O (centres unmarked) [TCMDC-123884]
Assay tox ratio Pf FGAA [1]: 64.88

CCOc1ccc(-n2nc3c(Cl)nnc(-c4ccccc4)c3c2-c2ccccc2)cc1 [TCMDC-123899]
Assay tox ratio Pf FGAA [1]: 106.43

OCCN1CCN(c2ccc(Nc3ccnc4cc5ccccc5cc34)cc2)CC1 [TCMDC-123915]
Assay tox ratio Pf FGAA [1]: 1.63

CCc1cc2c(Sc3nnc(N)s3)ncnc2s1 [TCMDC-123993]
Assay tox ratio Pf FGAA [1]: 44.35

Cc1ccnc(NC(c2cccc(Cl)c2Cl)c2ccc3cccnc3c2O)c1 (centres unmarked) [TCMDC-123997]
Assay tox ratio Pf FGAA [2]: 12.74

Cc1cc(I)ccc1Nc1nc2nonc2nc1Nc1ccc(I)cc1C [TCMDC-124083]
Assay tox ratio Pf FGAA [1]: 0.86

FC(F)(F)c1cccc(Nc2nc3ccccc3nc2Nc2cccc(C(F)(F)F)c2)c1 [TCMDC-124162]
Assay tox ratio Pf FGAA [1]: 7.38

CC(C)C1=CC(=NOS(=O)(=O)c2ccccc2)C=C(C(C)C)C1=O [TCMDC-124172]
Assay tox ratio Pf FGAA [1]: 24.74

CCN1CCN(c2ccc(Nc3c4ccccc4nc4ccccc34)cc2)CC1 [TCMDC-124255]
Assay tox ratio Pf FGAA [1]: 4.56

Cc1ccc(Cl)c2sc(N3CCN(C(=O)c4ccc([N+](=O)[O-])o4)CC3)nc12 [TCMDC-124311]
Assay tox ratio Pf FGAA [1]: 17.93

Cc1ccc(C)c2sc(N3CCN(C(=O)c4ccc([N+](=O)[O-])o4)CC3)nc12 [TCMDC-124315]
Assay tox ratio Pf FGAA [1]: 33.48

O=C(c1ccc([N+](=O)[O-])o1)N1CCN(c2nc3c(Cl)cccc3s2)CC1 [TCMDC-124316]
Assay tox ratio Pf FGAA [1]: 38.14

CC(C)(C)Nc1cc(C2CC2)nc(-c2ccccn2)n1 [TCMDC-124453]
Assay tox ratio Pf FGAA [1]: 1041.57

Cn1c(Sc2ncnc3sccc23)nc2ccccc21 [TCMDC-124514]
Assay tox ratio Pf FGAA [2]: 80.21

O=C(Nc1ccc([N+](=O)[O-])cc1)Nc1cc(OCC(F)(F)F)cc(OCC(F)(F)F)c1 [TCMDC-124533]
Assay tox ratio Pf FGAA [1]: 5.40

CC1Cc2ccccc2N1S(=O)(=O)c1cccc(C(=O)Nc2nc(-c3ccccn3)cs2)c1 (centres unmarked) [TCMDC-124559]
Assay tox ratio Pf FGAA [1]: 146.27

c1ccn2c(Sc3ncnc4sccc34)ncc2c1 [TCMDC-124602]
Assay tox ratio Pf FGAA [1]: 413.79

Cl.Clc1cc(Br)ccc1-c1ccc(CNCC2CCNCC2)o1 [TCMDC-124617]
Assay tox ratio Pf FGAA [1]: 6.08

CN1CCC(N2CCC(Oc3cccc(C(=O)NCCCC4CCCC4)c3)CC2)CC1 [TCMDC-124677]
Assay tox ratio Pf FGAA [1]: 3.34

Cc1ccc2c(c1)c(C1CCN(C(=O)c3ccc([N+](=O)[O-])o3)CC1)cn2C [TCMDC-124787]
Assay tox ratio Pf FGAA [1]: 13.60

Cc1sc2nc(CN3CCCC3)nc(-n3c(NCCO)nc4ccccc43)c2c1C [TCMDC-124811]
Assay tox ratio Pf FGAA [1]: 3.65

C=CCc1cccc(CN2CCC(c3cc(=O)[nH]c(-c4ccccn4)n3)CC2)c1O [TCMDC-124851]
Assay tox ratio Pf FGAA [1]: 6.59

CCCc1cc(=O)[nH]c(-n2nc(C)cc2NC(=O)CC(c2ccccc2)c2ccccc2)n1 [TCMDC-124940]
Assay tox ratio Pf FGAA [1]: 76.75

From PMC6753678, “Fueling Open Innovation for Malaria Transmission-Blocking Drugs: Hundreds of Molecules Targeting Early Parasite Mosquito Stages” (Frontiers in Microbiology, 2019)
